PMC12462963

The chains behind the UniProt entries cited, without tags or fusion partners. Where a name states a change or a piece, a line headed by the entry shows the natural chain unless it says otherwise.
UniProt Q7A1N5: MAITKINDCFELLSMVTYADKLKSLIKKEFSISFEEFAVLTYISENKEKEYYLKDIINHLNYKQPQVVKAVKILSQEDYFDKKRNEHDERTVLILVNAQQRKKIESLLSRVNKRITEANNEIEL

Assays:
Assay in all cases: EMSA
[1] = target: SarA-His6 (Staphylococcus aureus TZ0912) (UniProt Q7A1N5); settings: EMSA: 750 mM NaCl, 50 mM Tris-HCl pH 7.4, 0.5 mM DTT, 20 ng probe in 20 uL, 30 min 37 C; 6% gel, 0.5x TBE; recombinant protein; protein details: His6 (pET28a NdeI/XhoI); label: 5'-FAM; probe letters rebuilt from the primers and the genome
[2] = target: T1, ArcR-His6 (Staphylococcus aureus TZ0912) (UniProt Q2FUY1); settings: EMSA: 750 mM NaCl, 50 mM Tris-HCl pH 7.4, 0.5 mM DTT, 20 ng probe in 20 uL, 30 min 37 C; 6% gel, 0.5x TBE; recombinant protein; protein details: His6 (pET28a NdeI/XhoI); label: 5'-FAM; probe letters rebuilt from the primers and the genome
T1 sequence (looked up, limits assumed): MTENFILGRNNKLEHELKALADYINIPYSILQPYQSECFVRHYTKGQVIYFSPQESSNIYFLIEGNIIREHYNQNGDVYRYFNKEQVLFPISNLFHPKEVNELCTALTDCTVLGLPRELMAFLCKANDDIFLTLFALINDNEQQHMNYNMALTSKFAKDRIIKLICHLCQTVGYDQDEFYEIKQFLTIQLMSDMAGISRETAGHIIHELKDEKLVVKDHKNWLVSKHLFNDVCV

[3] = target: T2, AgrA-His6 (Staphylococcus aureus TZ0912) (UniProt Q5HEG2); settings: 50 mM acetyl phosphate; EMSA: 750 mM NaCl, 50 mM Tris-HCl pH 7.4, 0.5 mM DTT, 20 ng probe in 20 uL, 30 min 37 C; 6% gel, 0.5x TBE; recombinant protein; protein details: His6 (pET28a NdeI/XhoI); label: 5'-FAM; probe letters rebuilt from the primers and the genome
T2 sequence (looked up, limits assumed): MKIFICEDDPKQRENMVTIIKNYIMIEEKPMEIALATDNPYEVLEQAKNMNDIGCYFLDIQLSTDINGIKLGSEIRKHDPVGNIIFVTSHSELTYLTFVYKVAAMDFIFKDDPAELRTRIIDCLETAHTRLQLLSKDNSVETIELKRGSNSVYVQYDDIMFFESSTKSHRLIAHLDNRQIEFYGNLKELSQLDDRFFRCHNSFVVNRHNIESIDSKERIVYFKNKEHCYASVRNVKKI

Sequence | binding result [1] | binding result [2] | binding result [3]
GGGAGAACTAGAGATAGAATTTGGAAAAAGATTGTTGTAAATAAAATTATTAATCAATCAAAATGTTTAGAAAACAATTTACATAATGAGAATGTGAAGTTATTAGTAAACTTAGCAAAAGATGTTAGTTCTGGAGATAAAAGTAATAAAGAAGCACAGGCTGCAAGAATTTATTTTAAAGATTTATACGGTAAACAATTTAAACGTGGACGGTACAATGATATTATTAACTCAGGGTTGAATTATGGGTATTCGATACTTAGATCTTTTATAAAAAAAGAACTAGCTTTACATGGATTCGAAATGAGTTTAGGCATTAATCATCGTTCG (double strand) [Pcas] | binds | binds | 
GACTAAACCAAATGCTAACCCAGAAATACAATCACTGTGTCTAATGAATAATTTGTTTTATAAACACTTTTTTGTTTACTTCTCATTTTTAATTAGTTATAATTAACTAAATAATAGAGCATTAAATATATTTAATAAAACTTATTTAATGCAAAATTATGACTAACATATCTATAATAAATAAAGATTAGATATCAATATATTATCGGGCAAATGTATCGAGCAAGATGCATCAAATAGGGAGGTTTTAAACATGGCAATTACAAAAATCAATGATTGCTTTGAGTTGTTATCAATGGTCAC (double strand) [PsarA] |  |  | binds
GGGAGAACTAGAGATAGAATTTGGAAAAAGATTGTTGTAAATAAAATTATTAATCAATCAAAATGTTTAGAAAACAATTTACATAATGAGAATGTGAAGTTAT (double strand) [Pcas-222-123 (Table S2: -241-142)] | binds |  | 
AAAGCTCCAATTTCGCTATTTACTTTAATTGGACCATCTGTCATGTCTATTTCCTCCTTTTATCTTTGAATTCATTTAGAGTATAGACAATCTTCAAACGCTTACATGTGATTATATTCACATAAAGAAAGTCGAAAATTTCATATCTTTTTGTTATACAATACATAATAATGGATTTTTATACATAAATAAAGGCGTTTTGGATCAAAATATACATTTTTTATTCAAAAATACCCATAAAAACATGTTGTATAAAGTTTTTTATACAGTCAAATGAATGACTATGAATTCTTTCTTTCCATAAAAAAAACGCGTACACAAGTTAATATTTGGTAACTAACTTGAGTACACGTGATACGAAACTAATTTTTATTATTCATTTGATACATGTCTATTTAAATAATTTTGCATATACGTATTCTGCCATATCATTTGAGGC (double strand) [ParcR] |  |  | binds

Construct, isoform or probe ends are uncertain for at least one entry. For some assays here: At least one verdict was read from the data and is not stated in words by the source. For some assays here: Protein sequences can lack the tags named with them.
